Test system: HIV-1 attachment to HeLa CD4 LTR B-gal cells
Assay: Inhibition of attachment assay
Format: cell-based
Experimental: The attachment assay was performed with the HeLa CD4 LTR B-gal cells available from the AIDS Research and Reference Reagent Repository. […] HeLa CD4 LTR B-gal cells express cell surface CD4 and contain an LTR B-galactosidase reporter construct. Upon infection either the Tat protein incorporated into the virion or new Tat produced following virus integration and transcription trans-activate the LTR B-gal reporter, leading to expression of the B-galactosidase enzyme. HeLa CD4 LTR B-gal cells are routinely cultured with the required selection antibiotics and scrended for mycoplasma contamination. Twenty-four h prior to initiation of the assay cells were trypsinized, counted and 1×10^4 cells placed in a 0.2 cm well in media without selection antibiotics. Media was removed and compound media placed on the cells and incubated for 15 to 30 min at 37° C. A known titer of virus was then added to the wells and the incubation continued for 1 h. At the end of the incubation the wells were washed 6 times with media and the culture continued for 48 h. At 48 h the wells were washed one time with PBS and B-galactosidase enzyme expression determined by chemiluminescence per manufacturers instructions (Tropix Gal-screen TM, Tropix, Bedford, Mass.). Compound toxicity was monitored on sister plates using MTS dye reduction. (See Tables 14 through 16 and FIGS. 21 and 22).

## Zinc Iodiscorbate [Compound Z]
0.32 μG/Ml
  RLU (Relative Light Units) MEAN: 137321.7 RLU
1 μG/Ml
  RLU (Relative Light Units) MEAN: 144365.3 RLU
3.2 μG/Ml
  RLU (Relative Light Units) MEAN: 113431.3 RLU
10 μG/Ml
  RLU (Relative Light Units) MEAN: 95054.0 RLU
32 μG/Ml
  RLU (Relative Light Units) MEAN: 82862.7 RLU
100 μG/Ml
  RLU (Relative Light Units) MEAN: 101665.0 RLU

Source: patent US20030181436A1, “Treatment for AIDS, HIV, and other related diseases and compounds for use therewith” (priority 2001, published 2003)
